Paper PMC8844411

System: rSEN1998 (RDF-like protein) (Salmonella enterica serovar Enteritidis P125109)
Test: EMSA
Conditions: 10 mM Tris-HCl pH 8.0, 150 mM KCl, 0.1 mM EDTA, 0.5 mM TCEP, 5% glycerol, room temperature, 60 min, recombinant protein, residues 1-72, protein details: N-terminal 6xHis (pET-15b), probe letters rebuilt from the primers and the genome

Sequence	binding result (complexes visible from 3.5 uM (0, 0.696, 3.478, 6.956 uM tested), several complexes)	binding result (complexes visible from 0.7 uM (0, 0.696, 3.478, 6.956 uM tested), higher affinity than attL suggested)
ATAGAGGCCAAACCCGTCAGTGAGCTTGACGGCCTTTTCCGATGGTCTGGTATTTTTTACTTTGGTATCAGTAAGTGACATGACGGTTCCCTCCGCGTGCTGGTAAAACACAAATCGAACCAGCTTTACCAGCATTTTTACCAGCAAAAGGGTATGGCTTCGAGTGGTTTTTAGTGAACGAGAGTGAACCTGAAGAAGGGAATAACCAGTTGATATAAATGCAGAAAGCAGACGTCAGTGAACGTCTGCTTTCCTTAATTTGGCTCCTCTGACTGGACTCGAACCAGTGACATACGGATTAACAGTCCGCCGTTCTACCGACTGAACTACAGAGGAATCGTGTGAACGGGGCGCATAGTA (double strand) [attL]	binds	
TTAAACGTCTCCGGACTCGCCAGGATGTCCCGAAACTAAAATCTGGCTCCTCTGACTGGACTCGAACTTCATCTGTAGCTCCTGCTGTTAGTGGCTTTCAAAAAATGGCGTCTGTTTTTACCATCATATTTACCAGCATTTTTAATGCTGTATTACCATAAAGTCAATTACTATCAATTAGTTATGACAATACACTTCACTGAACCTTACTGAACGATCTTCCTGTGCTGCTATAAATTTTATCTCGTTTATTCAACAGATTACCGCTATTGCCCGATATGTTTCCTCCCGGAAAGATAAGTAAGGGCAGAAGAATACGTTATGACCAATGCTGAGATAGCCAGCCATCTTTATTCCCTTTCTCTATGCTGCTGGATGCGTTAACGTCAATGTAATGAACATCAACATTTTTAGGGAAAAGAATGACAAAAAGATTGCCTGTCGCG (double strand) [attR]		binds
